From US20200069664A1, “METHODS FOR TREATING INFECTION” (Salix Pharmaceuticals, Ltd, priority 2010, published 2020) come the findings set out here.

The series has as its system C difficile isolates. The experiment in a line: In vitro susceptibility of C difficile isolates (agar dilution for rifaximin, Etest for rifampin). The conditions noted are these: rifaximin alone n = 11; rifampin n = 28.

Take “(2S,16Z,18E,20S,21S ,22R, 23R,24R,255,265,275,28E)-5,6,21,23,25 Pentahydroxy-27-methoxy-2,4,11,16,20,22,24,26-octamethyl-2,7-(epoxypentadeca-(1,11,13) trienimino) benzofuro (4,5-e) pyrido(1,2,-a) benzimidazole-1,15(2H)-dione,25-acetate [Rifaximin]”: the “Resistant isolates with genotype A+ B+ BT+ tcdC-del+, %” value is on record as “(0) %”; the “Resistant isolates with genotype A+ B+ BT+ tcdC-del−, %” value is reported as “(18) %”; the “Resistant isolates with genotype A+ B+ BT− tcdC-del+, %” value was “(9) %”; the “Resistant isolates with genotype A+ B+ BT− tcdC-del−, %” value is given as “(55) %”. For the same substance, the “Resistant isolates with genotype A− B− BT− tcdC-del−, %” value was “(18) %”.
